The assay deals with gp41 NHR hydrophobic pocket (receptor Fe(env2.0)3) (Human immunodeficiency virus type 1 group M subtype B, UniProt P04578). Particulars: binding assay, inhibition of CHR peptide binding.

This note sets out measurements from paper PMC3321071 (Bioorganic & medicinal chemistry letters, 2012).

What is called Ki is a measure of affinity in units of concentration, obtained from inhibition or displacement. High values mean weaker binding, low ones tighter binding. The substance H2N-Asp-[Trp]-Trp-OH registered a Ki of 1300 nM. In other words, the single-digit micromolar range.

H2N-Asn-[Trp]-Trp-OH: the Ki was 800 nM. This Ki lies about 1.6-fold lower than the previous one.
